The values below come from BindingDB's records for doi:10.1021/jm049276y (Abbott Laboratories, 2005).

Amino acid sequences for entries named in this document (tags omitted).
UniProt P06820, whole entry: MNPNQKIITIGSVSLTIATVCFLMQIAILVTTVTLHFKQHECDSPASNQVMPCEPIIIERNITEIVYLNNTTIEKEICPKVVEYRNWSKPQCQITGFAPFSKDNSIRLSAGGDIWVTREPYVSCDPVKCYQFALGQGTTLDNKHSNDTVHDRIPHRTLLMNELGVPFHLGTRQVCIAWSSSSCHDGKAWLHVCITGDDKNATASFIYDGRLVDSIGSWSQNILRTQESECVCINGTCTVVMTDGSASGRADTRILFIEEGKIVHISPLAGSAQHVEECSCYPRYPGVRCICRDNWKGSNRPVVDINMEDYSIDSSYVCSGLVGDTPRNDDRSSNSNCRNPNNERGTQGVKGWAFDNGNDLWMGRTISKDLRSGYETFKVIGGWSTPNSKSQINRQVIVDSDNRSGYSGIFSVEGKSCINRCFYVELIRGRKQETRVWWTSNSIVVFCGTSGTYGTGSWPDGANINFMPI

SMILES strings stand for the structures.

For the test, the target named is Neuraminidase (Influenza A virus (strain A/Tokyo/3/1967 H2N2), UniProt P06820). The conditions noted are these: pH 7.5; 22 °C.

The Ki is the dissociation constant of the complex between target and ligand, obtained from inhibition or displacement. Low values mean tighter binding, high ones weaker binding. As for `CC(=O)N[C@@H](CC(C)C)[C@@H]1N[C@@H](C(=O)O)C[C@H]1c1cc[nH]n1` (racemic) [(2R,4R,5R)-5-[(1S)-1-acetamido-3-methylbutyl]-4-(1H-pyrazol-3-yl)pyrrolidine-2-carboxylic acid], the Ki stood at 45 nM. That is a double-digit nanomolar value.
